Measurements published in PubChem BioAssay AID504329 (Southern Research Specialized Biocontainment Screening …, 2011).
This is one part of the list. Results with a measured potency or affinity are listed apart. The source made the active and inactive calls. Rule as the data show it: inconclusive = inhibition above about 27% without an active follow-up result; inactive = below that.

Test: H1N1 influenza NS1A inhibitors, functional cell based assay (AID 504329)
Details: percent inhibition, at 12.5 µM, active compounds read high

| SMILES | inhibition |
| --- | --- |
| CC(=O)Nc1ccc([As](=O)(O)O)c(O)c1 | inactive: 4.11% |
| O=C(NC1CCS(=O)(=O)C1)NP(=S)(Oc1ccccc1)Oc1ccccc1 (centres undefined) | inactive: -6.62% |
| CCNC(=S)/N=C(\N)N[N+](=O)[O-] | inactive: -6.86% |
| O=P1(N(CCCl)CCCl)OCCC2CCCCN21 (centres undefined) | inactive: 8.54% |
| Cc1ccc(OP(=O)(Nc2ccccn2)Oc2ccc(C)cc2)cc1 | inactive: 0.12% |
| CC(=O)NC(SC(=S)N(CC(C)C)CC(C)C)C(Cl)(Cl)Cl (centres undefined) | inactive: 24.4% |
| COC(=O)c1cc2c(s1)N=C(c1ccccc1)N(C)P2(=O)N1CCOCC1 (centres undefined) | inactive: -13.8% |
| CCC(=O)N1C2C3N(C(=O)CC)C1C1N(C(=O)CC)C(C(N1C(=O)CC)N3C(=O)CC)N2C(=O)CC | inactive: 2.35% |
| O=C(OC1CN2CCC1CC2)c1ccccc1 (centres undefined) | inactive: -19.7% |
| O=c1c2cc([N+](=O)[O-])ccc2[nH]c2c([N+](=O)[O-])cc([N+](=O)[O-])cc12 | inactive: -7.38% |
| CN(C)C(=O)Oc1noc2ccccc12 | inactive: -12.8% |
| CC(NC(=O)COC(=O)C(O)(c1ccccc1)c1ccccc1)c1ccccc1 (centres undefined) | inactive: -1.7% |
| Cc1ccccc1OP(=O)(Nc1ccccn1)Oc1ccccc1C | inactive: -1.03% |
| CS(=O)(=O)c1cc([N+](=O)[O-])c2no[n+]([O-])c2c1 | inactive: -8.59% |
| O=P(Nc1nccs1)(Oc1ccccc1)Oc1ccccc1 | inactive: -5.74% |
| O=P(Nc1nccs1)(c1ccccc1)c1nc2ccccc2s1 (centres undefined) | inactive: -14.5% |
| CCOP1(=S)c2c(C)nn(CCC#N)c2N=C(c2ccccc2F)N1C (centres undefined) | inactive: 1.42% |
| O=C(O)COc1ccc([As](=O)(O)O)cc1[N+](=O)[O-] | inactive: -9.07% |
| Nc1ccccc1[As](=O)(O)c1ccccc1 | inactive: 12.8% |
| NC(=O)Nc1ccc([As](=O)(O)O)cc1 | inactive: -19.9% |
| CN(C(=O)Cc1ccc(Cl)c(Cl)c1)[C@H]1CC[C@@]2(CCCO2)C[C@@H]1N1CCCC1 | inactive: -1.58% |
| O=[N+]([O-])c1ccc2c(c1)nnn2O | inactive: 4.39% |

| SMILES | inhibition |
| --- | --- |
| CN(C)C(=O)c1cc([N+](=O)[O-])cc2c1-c1c(cc([N+](=O)[O-])cc1[N+](=O)[O-])C2=O | inactive: -11.2% |
| CCOP1(=S)c2c(C)nn(CCC#N)c2N=C(c2ccc(F)cc2)N1C (centres undefined) | inactive: -8.29% |
| CN(C(=O)Cc1ccccc1)[C@@H]1CC[C@]2(CCCO2)C[C@H]1N1CCCC1 | inactive: -0.16% |
| N#CCCN(C(=O)COC(=O)C(O)(c1ccccc1)c1ccccc1)c1ccc(F)cc1 | inactive: -1.15% |
| CS(=O)(=O)c1ccc(Cl)c(NC(=O)COC(=O)C(O)(c2ccccc2)c2ccccc2)c1 | inactive: -11.7% |
| O=[As](O)(O)c1cccnc1 | inactive: -15.9% |
| COc1cc(C(=O)NCC2(N3CCOCC3)CCCCC2)cc(Cl)c1OC(C)C | inactive: 50.5% |
| O=C(OC1CN2CCC1CC2)c1ccc(Cl)cc1 (centres undefined) | inactive: -0.31% |
| Cc1cccc(OCC(=O)OC2CN3CCC2CC3)c1 (centres undefined) | inactive: 6.33% |
| O=[As](O)(c1cccc(O)c1)c1cccc(O)c1 | inactive: 12.5% |
| CCCOP(=S)(Nc1nc(N)cc(=O)[nH]1)OCCC | inactive: -6.77% |
| Nc1cccc2c([As](=O)(O)O)cccc12 | inactive: -16.5% |
| Cc1ccc(NCCc2c([N+](=O)[O-])cc([N+](=O)[O-])cc2[N+](=O)[O-])cc1 | inactive: 25.4% |
| CCOP(=O)(Nc1cccc2ccccc12)OCC | inactive: 11.9% |
| COc1cc(C2NCCC3(OCCO3)C2(C)C)cc(OC)c1OC (centres undefined) | inactive: 1.85% |
| CCOP(=O)(Nc1ccc(C)cn1)OCC | inactive: -8.54% |
| CCOP(=O)(NC(=NC(C)c1ccccc1)NC(C)c1ccccc1)OCC (centres undefined) | inactive: -13.7% |
| CCC1=CC2Cc3nc4ccc(Cl)cc4c(N)c3C(C1)C2 (centres undefined) | inactive: 0.22% |
| O=P1(Nc2ccccn2)COc2ccccc2OC1 | inactive: 8.45% |
| CC(C)(C)C(=O)NC(Sc1ncccn1)C(Cl)(Cl)Cl (centres undefined) | inactive: -16.4% |
| Clc1n[nH]nc1-c1nn[nH][15n]1 | inactive: 1% |
| COc1ccccc1CNC(=O)COC(=O)C(O)(c1ccccc1)c1ccccc1 | inactive: -2.37% |

| SMILES | inhibition |
| --- | --- |
| CC1(CBr)Cn2c(nc3ccccc3c2=O)S1 (centres undefined) | inactive: -5.29% |
| CN(C(=O)Cc1ccc(Cl)c(Cl)c1)[C@@H]1CCCC[C@H]1N1CCCC1 | inactive: 3.09% |
| CC(C)/C=N\N=C(\N)N[N+](=O)[O-] | inactive: -7.94% |
| Cc1ccc(C(=O)OC2CN3CCC2CC3)cc1 (centres undefined) | inactive: -1.48% |
| CC1CCC(C(C)C)C(OP(=O)(Nc2ccccn2)c2ccccc2)C1 (centres undefined) | inactive: 14.2% |
| Cc1nn(-c2ccccc2)c2c1P(=O)(N1CCOCC1)N(C)C(c1ccccc1)=N2 (centres undefined) | inactive: -3.32% |
| CCCC1OP(=O)(Nc2ccccc2)OCC1CC (centres undefined) | inactive: -1.35% |
| O=C(/C=C/c1ccccc1)OC1CN2CCC1CC2 (centres undefined) | inactive: -21.9% |
| CN(C)C1(CNC(=O)c2ccc(S(C)(=O)=O)cc2)CCCCC1 | inactive: -0.3% |
| O=P1(Nc2ncccn2)COc2ccccc2OC1 | inactive: 1.56% |
| O=[As](O)(c1cccs1)c1cccs1 | inactive: -1.71% |
| Cc1ccc(OCC(=O)OC2CN3CCC2CC3)cc1 (centres undefined) | inactive: -0.03% |
| NS(=O)(=O)c1cccc(NC(=O)COC(=O)C(O)(c2ccccc2)c2ccccc2)c1 | inactive: -6.09% |
| O=P1(Nc2ccc(Br)cn2)COc2ccccc2OC1 | inactive: -14.1% |
| Nc1cccc([As](=O)(O)c2ccccc2)c1 | inactive: 14.3% |
| CC1CCNP(=O)(N(CCCl)CCCl)O1 (centres undefined) | inactive: 0.03% |
| CCOC(=O)Nc1ccc([As](=O)(O)O)c(O)c1 | inactive: -9.66% |
| Cc1cc(SC(NC(=O)c2ccccc2)C(Cl)(Cl)Cl)nc(C(C)C)n1 (centres undefined) | inactive: -7.32% |
| CCCCOc1ccc(C(=O)NCC2(N3CCCCC3)CCCCC2)cc1OC | inactive: 7.7% |
| CCOC(=O)Nc1cccc([As](=O)(O)O)c1 | inactive: -13.3% |
